Source: PubChem BioAssay AID624099 (ICCB-Longwood, 2012)

- Aim: 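Knock-downs relieving repression by E2 of an HPV18 LCR luciferase reporter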 (primary screen)
- System: human C33A cervical carcinoma cells (HPV-negative) stably expressing BPV1 E2 and an HPV18 LCR luciferase reporter
- Reagent: siRNA pool against human genes, 40 nM
- Timing: 72 h
- Detection: 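HPV18 LCR reporter light per well, converted to plate-wise z-scores that exclude control wells, and averaged over triplicate plates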
- Reading the numbers: mean z-score and z-score: higher = stronger reporter signal, weaker E2 silencing
- Call rule: 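Mean z ≥ 2 together with z ≥ 2 in two or more of the three replicates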
The whole screen tested about 21,000 reagents; shown is a part drawn at random. 497 of all reagents (2.4%) count as active. 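Higher z means weaker E2 silencing; only reporter increases were scored, and knock-downs that hurt cell survival may mask genuine repressor factors.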 The numbers tell different reagents against one gene apart.

CNNM4 scored mean z-score 1.16; z-score, replicate A = 1.17; z-score, replicate B = 1.01; z-score, replicate C = 1.29; inactive. ARHGEF16 gave mean z-score 0.23; z-score, replicate A = 0.15; z-score, replicate B = 0.16; z-score, replicate C = 0.39; inactive. TNNI3 gave mean z-score 1.38; z-score, replicate A = 0.86; z-score, replicate B = 1.54; z-score, replicate C = 1.73; inactive. Knock-down of DNAJC6 resulted in: mean z-score 0.89; z-score, replicate A = 0.74; z-score, replicate B = 1.11; z-score, replicate C = 0.82; inactive. For RHOB, the values are mean z-score 1.12; z-score, replicate A = 0.8; z-score, replicate B = 1.33; z-score, replicate C = 1.21; inactive. With knock-down of C10orf90, the record shows mean z-score -0.71; z-score, replicate A = -0.84; z-score, replicate B = -0.75; z-score, replicate C = -0.54; inactive.

Depletion of NRXN1 came out at: mean z-score 0.05; z-score, replicate A = 0.04; z-score, replicate B = 0.1; z-score, replicate C = 0; inactive. With knock-down of EGFL8, the screen gave mean z-score 0.85; z-score, replicate A = 1.16; z-score, replicate B = 0.51; z-score, replicate C = 0.9; inactive. For ITGB3BP, the values are mean z-score 0.31; z-score, replicate A = 0.38; z-score, replicate B = 0.34; z-score, replicate C = 0.2; inactive. With knock-down of NEUROG1 the results were mean z-score 0.51; z-score, replicate A = 0.28; z-score, replicate B = 0.76; z-score, replicate C = 0.49; inactive. Knock-down of KIAA0232 gave: mean z-score 0.57; z-score, replicate A = 0.15; z-score, replicate B = 0.76; z-score, replicate C = 0.8; inactive. GRWD1 showed mean z-score 0.55; z-score, replicate A = 0.56; z-score, replicate B = 0.56; z-score, replicate C = 0.52; inactive.

Records listed so far whose target name begins with C or c:
CNNM4 — mean z-score = 1.16; z-score, replicate A = 1.17; z-score, replicate B = 1.01; z-score, replicate C = 1.29; Call = inactive
C10orf90 — mean z-score = -0.71; z-score, replicate A = -0.84; z-score, replicate B = -0.75; z-score, replicate C = -0.54; Call = inactive

Further records follow.
DNAJB12 gave mean z-score -1.51; z-score, replicate A = -1.64; z-score, replicate B = -1.5; z-score, replicate C = -1.38; inactive. After knock-down of TMEM150A, the screen gave mean z-score 0.06; z-score, replicate A = 0.17; z-score, replicate B = 0.16; z-score, replicate C = -0.14; inactive. After knock-down of MMP25 #1, the screen gave mean z-score -0.44; z-score, replicate A = -0.32; z-score, replicate B = -0.61; z-score, replicate C = -0.38; inactive. Depletion of MMP25 #2 came out at: mean z-score 0.36; z-score, replicate A = 0.84; z-score, replicate B = 0.32; z-score, replicate C = -0.09; inactive. For TPM3P4 the deposit lists mean z-score 0.26; z-score, replicate A = 0.2; z-score, replicate B = 0.18; z-score, replicate C = 0.41; inactive. SDE2 showed mean z-score -1.02; z-score, replicate A = -1.14; z-score, replicate B = -1.08; z-score, replicate C = -0.83; inactive.

With knock-down of TC2N the results were mean z-score -0.54; z-score, replicate A = -0.5; z-score, replicate B = -0.61; z-score, replicate C = -0.51; inactive. Silencing of RNF123 came out at: mean z-score 0.17; z-score, replicate A = 0.36; z-score, replicate B = -0.02; z-score, replicate C = 0.18; inactive. With knock-down of ACOX2 the results were mean z-score -1.08; z-score, replicate A = -1.11; z-score, replicate B = -1.05; z-score, replicate C = -1.08; inactive. For MS4A3, the entry reads mean z-score 1.24; z-score, replicate A = 1.35; z-score, replicate B = 0.87; z-score, replicate C = 1.51; inactive. After knock-down of ALPK2 the results were mean z-score 0.22; z-score, replicate A = 0.47; z-score, replicate B = -0.28; z-score, replicate C = 0.46; inactive. With knock-down of ACAD8 the results were mean z-score -0.97; z-score, replicate A = -0.91; z-score, replicate B = -0.97; z-score, replicate C = -1.03; inactive.

Against CACNA1B the deposit lists mean z-score 0.06; z-score, replicate A = -0.08; z-score, replicate B = 0.17; z-score, replicate C = 0.1; inactive. Silencing of AOPEP came out at: mean z-score -0.25; z-score, replicate A = -0.24; z-score, replicate B = -0.23; z-score, replicate C = -0.28; inactive. Against FARP1, the values are mean z-score 1.84; z-score, replicate A = 1.66; z-score, replicate B = 1.59; z-score, replicate C = 2.28; inactive.
